A mixed list of measured activities; the numbers were collected in NIAID ChemDB.

Shared fields: tests in culture; species: Candida albicans

Neighbouring rows are from separate reports. An empty or dashed field is not shown. Percent inhibition refers to the dose given; in toxicity tests it is the harm to the cells. A number after MIC or MFC names an inhibition level or a share of isolates.

OC(CN1CCN(c2ccc(OCc3ccncc3)cc2)CC1)(Cn1cncn1)c1ccc(F)cc1F ; endpoint: MIC80 ; strain or isolate: 304322 ; result: 0.5 µg/mL
C[C@@H](N1CCN(Cc2cn(Cc3ccc(Cl)cc3Cl)c3c(Cl)cccc23)CC1)[C@](O)(Cn1cncn1)c1ccc(F)cc1F ; method: resazurin ; endpoint: MIC80 ; strain or isolate: ATCC MYA-1003 ; result: >128 µg/mL
CC(C)(O)c1cn(-c2cccc3ccccc23)nn1 ; dose: 2048 µg/mL ; method: broth dilution ; endpoint: inhibition ; strain or isolate: URM 3719 ; result: 0%
Cc1ccc(-c2c3c(N)c4c(nc3nc3c2c(C)nn3-c2ccccc2)CCCCC4)cc1 ; method: broth dilution / absorbance ; endpoint: MIC100 ; strain or isolate: CCC 127 ; result: 125 µg/mL
C[C@@H](N1CCN(Cc2cn(Cc3ccc(F)cc3F)c3cc(Cl)ccc23)CC1)[C@](O)(Cn1cncn1)c1ccc(F)cc1F ; method: resazurin ; endpoint: MIC80 ; strain or isolate: ATCC 90028 ; result: 0.125 µg/mL
COc1ccc(-c2c3c(N)c4c(nc3nc3c2c(C)nn3-c2ccccc2)CCCC4)cc1 ; method: broth dilution / absorbance ; endpoint: MIC100 ; strain or isolate: ATCC 10231 ; result: 250 µg/mL
CC(C)(O)c1cn(-c2ccc([N+](=O)[O-])cc2)nn1 ; dose: 2048 µg/mL ; method: broth dilution ; endpoint: inhibition ; strain or isolate: URM 4385 ; result: 0%
Cc1ccc(-c2c3c(N)c4c(nc3nc3c2c(C)nn3-c2ccccc2)CCC4)cc1 ; method: broth dilution / absorbance ; endpoint: MIC50 ; strain or isolate: CCC 130 ; result: 62.5 µg/mL
C=CCc1ccc(OC)c(OC)c1 ; method: turbidity ; endpoint: MIC90 ; strain or isolate: 2938 ; result: 350 µg/mL
CC(C)(O)c1cn(-c2ccc3ccccc3c2)nn1 ; dose: 2048 µg/mL ; method: broth dilution ; endpoint: inhibition ; strain or isolate: URM 4125 ; result: 0%
CC(O)Cn1cc(CN2CCN([C@H](C)[C@](O)(Cn3cncn3)c3ccc(F)cc3F)CC2)c2cccc(Cl)c21 ; method: resazurin ; endpoint: MIC80 ; strain or isolate: ATCC 36082 ; result: 1 µg/mL
Cc1ccc(-c2c3c(N)c4c(nc3nc3c2c(C)nn3-c2ccccc2)CCCC4)cc1 ; method: broth dilution / absorbance ; endpoint: MIC50 ; strain or isolate: CCC 126 ; result: 15.6 µg/mL
CC(C)(O)c1cn(-c2ccc(Cl)cc2)nn1 ; method: broth dilution ; endpoint: MIC ; strain or isolate: URM 3716 ; result: 256 µg/mL
C=CCn1cc(CN2CCN([C@H](C)[C@](O)(Cn3cncn3)c3ccc(F)cc3F)CC2)c2ccc(Cl)cc21 ; method: resazurin ; endpoint: MIC80 ; strain or isolate: ATCC 90028 ; result: 0.125 µg/mL
N=C(N)c1ccc2nc(-c3ccc(-c4nc5ccc(C(=N)N)cc5[nH]4)[nH]3)[nH]c2c1 ; endpoint: MFC ; strain or isolate: Isolate CA1548 ; result: 0.78 µg/mL

A second listing of 2 rows from above:

SMILES | dose | method | endpoint | strain or isolate | result
CC(O)Cn1cc(CN2CCN([C@H](C)[C@](O)(Cn3cncn3)c3ccc(F)cc3F)CC2)c2cccc(Cl)c21 |  | resazurin | MIC80 | ATCC 36082 | 1 µg/mL
OC(CN1CCN(c2ccc(OCc3ccncc3)cc2)CC1)(Cn1cncn1)c1ccc(F)cc1F |  |  | MIC80 | 304322 | 0.5 µg/mL